Assay results taken from publication PMC3751045.

How the values were obtained:
Assay in all cases: purified protein
Settings in all cases: 160 μM NADPH, pH 6.5 phosphate, 40°C, GST fusion
O=C[C@@H](O)[C@H](O)CO = system: O=C[C@@H](O)[C@H](O)CO
O=C[C@@H](O)CO = system: O=C[C@@H](O)CO
CC(=O)C=O = system: CC(=O)C=O
O=CC=O = system: O=CC=O

Substance: Err1 from F. graminearum (FG04223.1) (Fusarium graminearum PH-1)
- Km (O=C[C@@H](O)[C@H](O)CO): 380.48 ± 18.65 µM
- kcat (O=C[C@@H](O)[C@H](O)CO): 2.91 s⁻¹
- kcat/Km (O=C[C@@H](O)[C@H](O)CO): 7640 M⁻¹ s⁻¹
- Km (O=C[C@@H](O)CO): 298.72 ± 88.4 µM
- kcat (O=C[C@@H](O)CO): 8.54 s⁻¹
- kcat/Km (O=C[C@@H](O)CO): 28600 M⁻¹ s⁻¹
- Km (CC(=O)C=O): 214.32 ± 7.64 µM
- kcat (CC(=O)C=O): 6.76 s⁻¹
- kcat/Km (CC(=O)C=O): 31600 M⁻¹ s⁻¹
- Km (O=CC=O): 535.16 ± 6.42 µM
- kcat (O=CC=O): 2.9 s⁻¹
- kcat/Km (O=CC=O): 5420 M⁻¹ s⁻¹
